Compound potency records, mixed from different reports. Data source: NIAID ChemDB in PubChem.

Shared fields: growth or infection tests; organism: Rhinovirus; read by: cytopathic effect; endpoint: EC50

ECn: concentration that inhibits the pathogen or its effect by n%.

smiles,strain,cells,value
CCOc1cc(CCCOc2c(C)cc(-c3noc(C)n3)cc2C)on1,Serotype 25,HeLa,0.014 µg/mL
CSc1nsc(-c2ccc(OCCOc3ccc(C#N)cc3)cc2)c1C#N,Serotype 29 (group B),HELA-OHIO,>2 µM
COCc1cc(CCCOc2c(Cl)cc(-c3noc(C)n3)cc2Cl)on1,Serotype 22,HeLa,0.009 µg/mL
CSc1nsc(-c2ccc(OCCCOc3ccc([N+](=O)[O-])cc3)cc2)c1C#N,Serotype 51 (group B),HELA-OHIO,>1 µM
CC(C)S(=O)(=O)c1ccc(Oc2ccc(C(=O)c3ccccc3)cc2)nc1,TYPE 64,HeLa,>5 µg/mL
CS(=O)(=O)c1ccc(Cc2ccc(F)cc2)nc1,TYPE 2,HeLa,>10 µg/mL
CCOC(=O)c1ccc(OCCCCOc2ccc(-c3snc(SC)c3C#N)cc2)cc1,Serotype 89 (group B),HELA-OHIO,>2 µM
CS(=O)(=O)c1ccc(NCc2ccc(C(F)(F)F)cc2)nc1,TYPE 2,HeLa,6.3 µg/mL
Cc1c(-c2ccccc2)n(-c2cccc(F)c2)c2ccc(C(C)C)cc2c1=O,8/MRH,HELA-OHIO,>1 µg/mL
CSc1nsc(-c2ccc(OCc3ccccc3)cc2)c1C#N,Serotype 39 (group B),HELA-OHIO,3 µM
CCN(CC)c1cc(-c2ccc(OC)cc2OC)on1,Serotype 51 (group B),HeLa,>362 µM
CS(=O)(=O)c1cccnc1Oc1ccc(C(=O)c2ccccc2)cc1,TYPE 2,HeLa,>10 µg/mL
CSc1nsc(-c2ccc(OCCCCOc3ccccc3)cc2)c1C#N,Serotype 14 (group A),HELA-OHIO,2.37 µM
CCn1c2c(c(=O)c3cc(C(C)C)ccc31)Cc1ccccc1-2,1B/B632,HELA-OHIO,0.3 µg/mL
CSc1nsc(-c2ccc(OCCc3ccccc3)cc2)c1C#N,Serotype 2 (group B),HELA-OHIO,3.9 µM
C#CCOc1cc(OC)ccc1-c1cc(N(CC)CC)no1,Serotype 63 (group B),HeLa,>40 µM
CCn1c(-c2cccc(F)c2)c(C)c(=O)c2cc(C(C)C)ccc21,TYPE 1B/B632,HELA-OHIO,0.64 µg/mL
CCN(CC)c1cc(-c2ccc(OC)cc2O)on1,Serotype 2,HeLa,>381 µM
Cc1c(-c2ccccc2)n(-c2ccc(F)cc2)c2ccc(C(C)C)cc2c1=O,TYPE 2/ HGP,HELA-OHIO,0.038 µg/mL
CS(=O)(=O)c1ccc(Oc2ccc(C(=O)c3ccccc3)cc2)nc1,TYPE 13,HeLa,>5 µg/mL
CC(C)S(=O)(=O)c1ccc(Cc2ccc(Cl)c(Cl)c2)nc1,TYPE 2,HeLa,1.3 µg/mL
CCOc1cc(OC)ccc1-c1cc(N(CC)CC)no1,Serotype 9 (group B),HeLa,15.5 µM
CSc1nsc(-c2ccc(OS(=O)(=O)c3ccc(C)cc3)cc2)c1C#N,Serotype 14 (group A),HELA-OHIO,>25 µM
Cc1nc(-c2cc(C)c(OCCCc3cc(C(F)(F)F)no3)c(C)c2)no1,Serotype 41,HeLa,0.536 µg/mL
CSc1nsc(-c2ccc(OCCCCOc3ccc([N+](=O)[O-])cc3)cc2)c1C#N,Serotype 85 (group B),HELA-OHIO,>0.5 µM
CS(=O)(=O)c1ccc(Cc2ccc(S(C)(=O)=O)cn2)cc1,TYPE 1A,HeLa,<2.5 µg/mL
COc1ccc(-c2cc(N3CCCC3)no2)c(O)c1,Serotype 85 (group B),HeLa,>384 µM
CS(=O)(=O)c1ccc(Cc2ccc(Cl)c(Cl)c2)nc1,TYPE 9,HeLa,>10 µg/mL
CSc1nsc(-c2ccc(O)cc2)c1C#N,Serotype 15 (group B),HELA-OHIO,>10 µM
CS(=O)(=O)c1ccc(NCc2ccc(Cl)c(Cl)c2)nc1,TYPE 39,HeLa,5 µg/mL
CCOC(=O)c1ccc(OCCC2CCN(c3ccc(C)nn3)CC2)cc1,Serotype 87,WI-38,>0.1 µg/mL

The last 3 rows once more:

smiles	strain	cells	value
CSc1nsc(-c2ccc(O)cc2)c1C#N	Serotype 15 (group B)	HELA-OHIO	>10 µM
CS(=O)(=O)c1ccc(NCc2ccc(Cl)c(Cl)c2)nc1	TYPE 39	HeLa	5 µg/mL
CCOC(=O)c1ccc(OCCC2CCN(c3ccc(C)nn3)CC2)cc1	Serotype 87	WI-38	>0.1 µg/mL

Conditions beyond the fields shown may differ between rows.